Results of unrelated studies side by side (data: NIAID ChemDB).

Shared fields: cytotoxicity tests; cell line: Huh7; measure: CC50

Two numbers with a dash give a range or band. Rows are shuffled and stem from different studies. CCn: concentration that lowers growth or viability of the cells by n%. An empty or dashed field is not shown.

structure	method	result
CCN(C)C(C(=O)N1CCC[C@H]1C(=O)Nc1ccc(C#Cc2ccc(NC(=O)[C@@H]3CCCN3C(=O)C(c3ccccc3)N(C)CC)cc2)cc1)c1ccccc1	resazurin	4.75 µM
Cc1ccc(Sc2ccc(F)cc2)c(Nc2ncnc3nc(C)ccc23)c1	MTT	6.1 µM
CCOc1nc(N)nc2ccc(-c3ccc(NC(=O)C4CC4)cc3)nc12	-	>20 µM
Cc1ccc(Sc2ccc(O)cc2)c(Nc2ncnc3nc(C4CCCCC4)ccc23)c1	MTT	>3.12 µM
CCOc1nc(N)nc2ccc(-c3ccc(NC(=O)C(C)(C)N)cc3)nc12	-	>20 µM
CCOc1nc(N)nc2ncc(-c3ccc(S(C)(=O)=O)cc3)nc12	-	>20 µM
CCOc1nc(N)nc2ccc(-c3cccc(NS(=O)(=O)c4cn(C)cn4)c3)nc12	-	>20 µM
CN(C)[C@@](C)(C(=O)N1CCC[C@H]1C(=O)Nc1ccc(C#Cc2ccc(NC(=O)[C@@H]3CCCN3C(=O)[C@@](C)(c3ccccc3)N(C)C)cc2)cc1)c1ccccc1	resazurin	3.11 µM
COc1ccc(-c2cnc3nc(N)nc(N4CCN(C(=O)Cc5ccc(Cl)cc5)CC4)c3n2)cc1OC	ATP	<10 µM
Nc1nc(N2CCOCC2)c2nc(-c3ccc(F)cc3Cl)cnc2n1	-	10–20 µM
COc1ccc(-c2cnc3nc(N)nc(N4CCN(C(=O)Nc5ccc(F)c(Cl)c5)CC4)c3n2)cc1OC	ATP	<10 µM
COc1ccccc1Nc1s[nH]c(=O)c1C#N	-	>50 µM
CCOc1nc(N)nc2ccc(-c3cccc(NS(C)(=O)=O)c3)nc12	-	>20 µM
N#Cc1c(Nc2ccc(Cl)c(Cl)c2)s[nH]c1=O	-	>50 µM
N[C@H](C(=O)N1CCC[C@H]1C(=O)Nc1ccc(C#Cc2ccc(NC(=O)[C@@H]3CCCN3C(=O)[C@@H](N)c3ccccc3)cc2)cc1)c1ccccc1	resazurin	>10 µM
CCOc1nc(N)nc2ncc(-c3ccncc3)nc12	-	<10 µM
CC(C)C(=O)N[C@@H](C(=O)N1CCC[C@H]1C(=O)Nc1ccc(C#Cc2ccc(NC(=O)[C@@H]3CCCN3C(=O)[C@H](NC(=O)C(C)C)c3ccccc3)cc2)cc1)c1ccccc1	resazurin	>10 µM
CCOc1nc(N)nc2ccc(-c3ccc(C(=O)Nc4ccccc4)cc3)nc12	-	>20 µM
CC(=O)c1cccc(Nc2s[nH]c(=O)c2C#N)c1	-	>50 µM
CCOc1nc(N)nc2ccc(-c3ccc(NS(C)(=O)=O)cc3)nc12	-	>20 µM
N#Cc1c(Nc2ccc(Br)cn2)s[nH]c1=O	-	>50 µM
CC(=O)Nc1ccc(Sc2ccc(C)cc2Nc2ncnc3nc(C(C)C)ccc23)cc1	MTT	28.8 µM
COc1ccc(-c2cnc3nc(N)nc(N4CCN(CC5OCCO5)CC4)c3n2)cc1OC	ATP	>20 µM
O=C(Nc1ccc(C#Cc2ccc(NC(=O)[C@@H]3CCCN3C(=O)[C@@H](c3ccccc3)N3CCCC3)cc2)cc1)[C@@H]1CCCN1C(=O)[C@@H](c1ccccc1)N1CCCC1	resazurin	3.1 µM
CC(C)(C)C(=O)Nc1ccc(-c2cnc3nc(N)nc(N4CCOCC4)c3n2)cc1	-	10–20 µM
CCOc1nc(NCc2ccc(S(N)(=O)=O)cc2)nc2ncc(-c3ccc(F)cc3)nc12	ATP	>20 µM
Cc1ccc(Sc2ccc(O)cc2)c(Nc2ncnc3nc(C4CCC4)ccc23)c1	MTT	31.8 µM
CCOc1nc(N)nc2ccc(-c3ccc(Nc4nncs4)cc3)nc12	-	>20 µM
N#Cc1c(NC2C3CC4CC(C3)CC2C4)s[nH]c1=O	-	>50 µM
O=C(Nc1ccc(/C=C/c2ccc(NC(=O)[C@@H]3CCCN3C(=O)Cc3ccccc3)cc2)cc1)[C@@H]1CCCN1C(=O)Cc1ccccc1	resazurin	>10 µM
CCOc1nc(N)nc2ncc(-c3ccc(C)cc3)nc12	-	>20 µM
CCOc1nc(N)nc2ccc(-c3ccc(NC(=O)CC)cc3)nc12	-	>20 µM
O=C(Nc1ccc(C#Cc2ccc(NC(=O)[C@@H]3CCCN3C(=O)C(c3ccccc3)N3CC[C@@H](O)C3)cc2)cc1)[C@@H]1CCCN1C(=O)C(c1ccccc1)N1CC[C@@H](O)C1	resazurin	>10 µM
CCOc1nc(N)nc2ccc(-c3ccc(C(=O)NC(C)(C)C)cc3)nc12	-	>20 µM
COc1ccc(-c2cnc3nc(N)nc(N4CCN(C(=O)Nc5cccc(Cl)c5)CC4)c3n2)cc1OC	ATP	<10 µM
COC(=O)c1cccc(Nc2s[nH]c(=O)c2C#N)c1	-	>50 µM
O=C(Nc1ccc(C#Cc2ccc(NC(=O)[C@@H]3CCCN3C(=O)[C@@H](c3ccccc3)N3CCC(O)CC3)cc2)cc1)[C@@H]1CCCN1C(=O)[C@@H](c1ccccc1)N1CCC(O)CC1	resazurin	>10 µM
N#Cc1c(Nc2ccc(Br)c(C(F)(F)F)c2)s[nH]c1=O	-	>50 µM
CN(C)[C@@H](C(=O)N1CCC[C@H]1C(=O)Nc1ccc(C#Cc2ccc(NC(=O)[C@@H]3CCCN3C(=O)[C@@H](c3ccccc3)N(C)C)cc2)cc1)c1ccccc1	resazurin	5.39 µM